Pooled drug test results. Numbers come from NIAID ChemDB, via PubChem.

All rows: tests in culture; organism: Herpes simplex virus 2

Rows are shuffled and stem from different studies.

Nc1nc2c(ncn2[C@@H]2C[C@H](CO)[C@H]2O)c(=O)[nH]1 ; method: plaque count ; endpoint: EC50 ; result: 0.4 µM
CC(=O)c1c(O)c2c(c(C(=O)CC(C)C)c1O)OC(C(C)(C)O)C2 ; cell line: VERO ; method: cytopathic effect ; endpoint: EC50 ; result: 10.4 µM
O=C(O)C(O[C@@H]1C=C[C@H](n2cc(F)c(=O)[nH]c2=O)C1)P(=O)(O)O ; strain: G ; cell line: HEL ; method: cytopathic effect ; endpoint: EC50 ; result: >250 µM
O=c1[nH]c(=O)n([C@H]2C[C@H](O)[C@@H](CO)O2)cc1CCCl ; strain: 196 ; cell line: PRK ; method: cytopathic effect ; endpoint: EC50 ; result: 1.8 µg/mL
CSCc1cn([C@H]2C[C@H](O)[C@@H](CO)O2)c(=O)[nH]c1=O ; strain: G ; cell line: PRK ; method: cytopathic effect ; endpoint: EC50 ; result: 4 µg/mL
Nc1ccn(C[C@@H](CO)OCP(=O)(O)O)c(=O)n1 ; strain: 8702 (TK+) ; cell line: MRC-5 ; method: plaque count ; endpoint: EC50 ; result: 8.3 µM
NS(=O)(=O)c1ncnc2c1ncn2[C@H]1C[C@H](O)[C@@H](CO)O1 ; method: cytopathic effect ; endpoint: EC50 ; result: >320 µM
O=c1[nH]c(=O)n([C@H]2C[C@H](O)[C@@H](CO)O2)cc1I ; strain: LYONS ; cell line: PRK ; method: cytopathic effect ; endpoint: EC50 ; result: 0.2 µg/mL
Nc1ncnc2c1ncn2[C@H]1C[C@@]12C[C@@H]2CO ; cell line: VERO ; method: plaque count ; endpoint: EC50 ; result: >50 µM
Nc1nc(=O)n([C@@H]2O[C@H](CO)[C@@H](O)[C@@H]2F)cc1I ; strain: G ; cell line: VERO ; method: plaque count ; endpoint: EC50 ; result: 0.9 µM
O=C(O)CP(=O)(O)O ; strain: UW/TK- ; cell line: HEL ; method: plaque count ; endpoint: EC50 ; result: 76 µM
C=Cc1cn([C@H]2C[C@H](O)[C@@H](CO)O2)c(=O)[nH]c1=O ; cell line: HFF ; method: cytopathic effect ; endpoint: EC50 ; result: 0.3 µM
Nc1nc2c(ncn2CC[C@@H](O)CO)c(=O)[nH]1 ; strain: 91075 (acyclovir-resistant) ; cell line: VERO ; method: plaque count ; endpoint: EC50 ; result: ≥250 µM
O=c1[nH]c(=O)n([C@H]2C[C@H](O)[C@@H](COP(=O)(O)O)O2)cc1I ; strain: 196 ; cell line: PRK ; method: cytopathic effect ; endpoint: EC50 ; result: 1 µg/mL
CCc1cn([C@H]2C[C@H](O)[C@@H](CO)O2)c(=O)[nH]c1=O ; strain: G ; cell line: PRK ; method: cytopathic effect ; endpoint: EC50 ; result: 0.07 µg/mL
Cc1cc(O)c2c(=O)c3cccc(Cl)c3[nH]c2c1 ; strain: 186 ; cell line: VERO ; method: plaque count ; endpoint: EC50 ; result: >50 µM
C=C[C@H](O)C1=C[C@@H](n2cnc3c(N)ncnc32)[C@H](O)[C@@H]1O ; strain: G ; cell line: E6SM ; method: cytopathic effect ; endpoint: EC50 ; result: >100 µg/mL
Nc1nc2c(ncn2[C@@H]2CO[C@H](CO)[C@@H](O)C2)c(=O)[nH]1 ; method: plaque count ; endpoint: EC50 ; result: 0.1–1 µM
NS(=O)c1ncnc2c1ncn2[C@H]1C[C@H](O)[C@@H](CO)O1 ; method: cytopathic effect ; endpoint: EC50 ; result: >320 µM
O=c1[nH]c(=O)n([C@H]2C[C@H](O)[C@@H](CO)O2)cc1/C=C/Br ; strain: G ; cell line: PRK ; method: cytopathic effect ; endpoint: EC50 ; result: 1.4 µg/mL
O=c1[nH]c(=O)n([C@H]2C[C@H](O)[C@@H](CO)O2)cc1I ; cell line: HFF ; method: cytopathic effect ; endpoint: EC50 ; result: 0.2 µM
O=c1[nH]c(=O)n([C@H]2C[C@H](O)[C@@H](CO)O2)cc1I ; strain: G ; cell line: MRC-5 ; method: plaque count ; endpoint: EC50 ; result: 0.95 µg/mL
C=Cc1cn([C@H]2C[C@H](OC(=O)C3=CN(C)C=CC3)[C@@H](CO)O2)c(=O)[nH]c1=O ; cell line: HFF ; method: cytopathic effect ; endpoint: EC50 ; result: 1.1 µM
Nc1nc2c(ncn2C[C@]2(CO)C[C@H]2CO)c(=O)[nH]1 ; cell line: VERO ; method: cytopathic effect ; endpoint: EC50 ; result: 1.5 µg/mL
Nc1nc2c(ncn2COCCO)c(=O)[nH]1 ; strain: G ; cell line: MRC-5 ; method: plaque count ; endpoint: EC50 ; result: 0.3 µg/mL
Cc1cn([C@@H]2O[C@H](CO)[C@@H](O)[C@@H]2O)c(=O)[nH]c1=O ; endpoint: MIC ; result: 1 µg/mL
Cc1cn([C@H]2C=C[C@@H](OC(C(=O)O)P(=O)(O)O)C2)c(=O)[nH]c1=O ; strain: G ; cell line: HEL ; method: cytopathic effect ; endpoint: EC50 ; result: >250 µM
[N-]=[N+]=NCc1cn([C@H]2C[C@H](O)[C@@H](CO)O2)c(=O)[nH]c1=O ; strain: VCX304 ; cell line: PRK ; method: cytopathic effect ; endpoint: EC50 ; result: 7 µg/mL
O=c1[nH]c(=O)n([C@H]2C[C@H](O)[C@@H](CO)O2)cc1I ; strain: G ; cell line: PRK ; method: cytopathic effect ; endpoint: EC50 ; result: 1 µg/mL
CC[C@]1(Cl)C(=O)NC(=O)N([C@H]2C[C@H](O)[C@@H](CO)O2)[C@@H]1OC ; strain: MS ; cell line: HFF ; method: cytopathic effect ; endpoint: EC50 ; result: >50 µM
Nc1nc2c(ncn2CCCCO)c(=O)[nH]1 ; strain: 72 ; cell line: VERO ; method: plaque count ; endpoint: EC50 ; result: 14 µM
Nc1nc2c(ncn2[C@@H]2C[C@H](CO)[C@H]2CO)c(=O)[nH]1 ; cell line: VERO ; method: cytopathic effect ; endpoint: EC50 ; result: 0.7 µg/mL
CC(=O)NC1C(O)OC(CO)C(O)C1OC1OC(C(=O)[O-])C(OC2OC(CO)C(O)C(OC3OC(C(=O)[O-])C(O)C(O)C3O)C2NC(C)=O)C(O)C1O.[Na+].[Na+] ; strain: 196 ; endpoint: EC50 ; result: >400 µg/mL
O=C(NCc1ccc(Cl)cc1)c1cn2c3c(cc(CN4CCOCC4)cc3c1=O)OC(c1cccnc1)C2 ; strain: 11572 (ACV-resistant) ; cell line: HFF ; method: plaque count ; endpoint: EC50 ; result: 4.7 µM
CCCC(=O)OCC(CO)OCn1cnc2c(=O)[nH]c(N)nc21 ; cell line: HFF ; method: plaque count ; endpoint: EC50 ; result: 1.7 µg/mL
Cc1cn([C@@H]2O[C@H](CO)[C@H]2CO)c(=O)[nH]c1=O ; strain: 8705 ; cell line: HFF ; method: plaque count ; endpoint: EC50 ; result: 0.5 µg/mL
Nc1nc2c(ncn2COCCO)c(=O)[nH]1 ; cell line: HFF ; method: plaque count ; endpoint: EC50 ; result: 1.8 µg/mL
O=C1O/C(=C\Cn2cnc3c(Cl)ncnc32)C(OCc2ccc([N+](=O)[O-])cc2)=C1OCc1ccc([N+](=O)[O-])cc1 ; strain: G ; cell line: HeLa ; method: cytopathic effect ; endpoint: EC50 ; result: 0.47 µM
CC(=O)OCC(CO)OCn1cnc2c(=O)[nH]c(N)nc21 ; cell line: HFF ; method: plaque count ; endpoint: EC50 ; result: 2.7 µg/mL
O=c1[nH]c(=O)n(COCCO)cc1Br ; cell line: PRK ; method: cytopathic effect ; endpoint: EC50 ; result: >400 µg/mL
Nc1ncnc2c1ncn2[C@H]1[C@H](O)[C@H](F)[C@@H](CO)[C@@H]1O ; strain: G ; cell line: HEP-2 ; method: cytopathic effect ; endpoint: EC50 ; result: 90 µM
Nc1nc2c(ncn2COC(CO)CO)c(=O)[nH]1 ; strain: Lovelace MS ; cell line: VERO ; method: plaque count ; endpoint: EC50 ; result: 0.4 µM
Cc1cn(COCCO)c(=O)[nH]c1=O ; cell line: PRK ; method: cytopathic effect ; endpoint: EC50 ; result: >400 µg/mL
O=C(O[C@@H]1[C@@H]2C(=O)c3cc(O)c(O)c(O)c3-c3c(cc(O)c(O)c3O)C(=O)OC[C@H]2OC(O)[C@@H]1O)c1cc(O)c(O)c(O)c1 ; cell line: VERO ; method: XTT ; endpoint: EC50 ; result: 4.75 µg/mL
Nc1ncnc2c1ncn2[C@@H]1C[C@H](CO)[C@@H](O)[C@H]1O ; cell line: PRK ; method: cytopathic effect ; endpoint: EC50 ; result: 2 µg/mL
C#C[C@@H](O)C1=C[C@@H](n2cnc3c(N)ncnc32)[C@H](O)[C@@H]1O ; strain: G ; cell line: E6SM ; method: cytopathic effect ; endpoint: EC50 ; result: >400 µg/mL
Nc1ncnc2c1ncn2[C@@H]1C[C@H](NC=O)[C@@H](O)[C@H]1O ; cell line: HFF ; endpoint: EC50 ; result: >100 µg/mL
O=c1[nH]c(=O)n([C@H]2C[C@H](O)[C@@H](CO)O2)cc1/C=C/Br ; endpoint: MIC ; result: 100 µg/mL
CNc1nc2c(=O)[nH]c(N)nc2n1COCCO ; cell line: PRK ; method: cytopathic effect ; endpoint: EC50 ; result: 3 µg/mL
O=c1[nH]c(=O)n([C@H]2C[C@H](O)[C@@H](COP(=O)([O-])OP(=O)([O-])OC[C@@H]3OC(O)[C@H](O)[C@H](O)[C@H]3O)O2)cc1I ; strain: LYONS ; cell line: PRK ; method: cytopathic effect ; endpoint: EC50 ; result: 0.4 µg/mL
Nc1ncnc2c1ncn2[C@H]1C[C@@H](CO)[C@H](O)[C@@H]1O ; cell line: PRK ; method: cytopathic effect ; endpoint: EC50 ; result: >400 µg/mL
Nc1nc2c(ncn2[C@H]2C[C@]23C[C@H]3CO)c(=O)[nH]1 ; cell line: VERO ; method: plaque count ; endpoint: EC50 ; result: >50 µM
[O-][n+]1onc2ncnc(N3CC[N+]4(CC3)CC[N+]3(CCN(c5ncnc6no[n+]([O-])c56)CC3)CC4)c21 ; strain: US ; cell line: GMK ; method: plaque count ; endpoint: EC50 ; result: 20.4 µM
NSc1ncnc2c1ncn2[C@@H]1O[C@H](CO)[C@@H](O)[C@@H]1O ; method: cytopathic effect ; endpoint: EC50 ; result: >320 µM
Cn1cc(C(=O)NCc2ccc(Cl)cc2)c(=O)c2cc(CN3CCOCC3)ccc21 ; strain: 13078 (ACV-resistant) ; cell line: HFF ; method: plaque count ; endpoint: EC50 ; result: 2.3 µM
O=Cc1cn([C@H]2C[C@H](O)[C@@H](CO)O2)c(=O)[nH]c1=O ; strain: LYONS ; cell line: PRK ; method: cytopathic effect ; endpoint: EC50 ; result: 2 µg/mL
Nc1ncnc2c1ncn2[C@H]1C[C@]12C[C@H]2CO ; cell line: VERO ; method: plaque count ; endpoint: EC50 ; result: >50 µM
Nc1nc2c(ncn2CCC(CO)CO)c(=O)[nH]1 ; method: plaque count ; endpoint: EC50 ; result: 1–10 µM

Repeating the final 6 entries:

compound | strain | cell line | method | endpoint | result
[O-][n+]1onc2ncnc(N3CC[N+]4(CC3)CC[N+]3(CCN(c5ncnc6no[n+]([O-])c56)CC3)CC4)c21 | US | GMK | plaque count | EC50 | 20.4 µM
NSc1ncnc2c1ncn2[C@@H]1O[C@H](CO)[C@@H](O)[C@@H]1O | - | - | cytopathic effect | EC50 | >320 µM
Cn1cc(C(=O)NCc2ccc(Cl)cc2)c(=O)c2cc(CN3CCOCC3)ccc21 | 13078 (ACV-resistant) | HFF | plaque count | EC50 | 2.3 µM
O=Cc1cn([C@H]2C[C@H](O)[C@@H](CO)O2)c(=O)[nH]c1=O | LYONS | PRK | cytopathic effect | EC50 | 2 µg/mL
Nc1ncnc2c1ncn2[C@H]1C[C@]12C[C@H]2CO | - | VERO | plaque count | EC50 | >50 µM
Nc1nc2c(ncn2CCC(CO)CO)c(=O)[nH]1 | - | - | plaque count | EC50 | 1–10 µM

An empty or dashed field is not shown. a–b is a range or a potency band. ECn is the concentration giving n% inhibition of infection, replication or growth.